A mixed list of measured activities; the numbers were collected in NIAID ChemDB.

Common to all: tests in culture; species: HIV-1; read by: luciferase; measure: EC50

Two numbers with a dash give a range or band.

| smiles | mutations | cell line | strain | setting | result |
|---|---|---|---|---|---|
| CC(C)(C)[C@@H](CO)n1cc(C(=O)O)c(=O)c2cc(Cc3cccc(Cl)c3F)ncc21 | - | HeLa | NL4-3 | pseudotyped | 0.01–0.1 µM |
| O=C(C(=O)N1CCN(C(=O)c2ccccc2)CC1)c1c[nH]c2c(OCC(F)(F)F)ccc(F)c12 | - | HeLa + HELA CD4+/CCR5 | - | - | <10 µM |
| O=C(NCc1ccc(F)cc1F)c1cn2c(c(O)c1=O)C(=O)NCC2 | S230N | HEK 293 | - | - | 0.1033 µM |
| Cc1nc(C)c([C@H](OC(C)(C)C)C(=O)O)c(N2CCC(C)(C)CC2)c1-c1ccc2c(c1)CCN(Cc1ccc(F)c(CC(F)(F)F)c1)C2 | - | MT-2 | NL4-3 | - | ≤0.1 µM |
| C[C@H](Cn1cnc2c(N)ncnc21)OCP(=O)(O)O | - | TZM-bl | pTHRO.c/2626 | - | 0.008 µM |
| C[C@@H]1CCO[C@H]2Cn3cc(C(=O)NCc4ccc(F)cc4F)c(=O)c(O)c3C(=O)N12 | M184I-R263K | TZM-bl | NL4-3 | - | 0.0042 µM |
| COc1cc2c(cc1Cc1cccc(Cl)c1F)c(=O)c(C(=O)O)cn2[C@H](CO)C(C)C | AGC (GGGAGC) | HOS | - | - | <0.003 µM |
| COc1c(C(=O)NCc2ccc(F)cc2)nc2n(c1=O)CC1CCC2(NC(=O)CCC(=O)O)CC1 | (delta)nef | MT-2 | NL4-3 | pseudotyped | <0.01 µM |
| Cc1c2c(c(C)c([C@H](OC(C)(C)C)C(=O)O)c1-c1ccc3c(c1)CCCO3)CN(C(=O)c1cccc(F)c1)C2 | - | MT-4 | IIIB | - | 0.036 µM |
| Cc1ccc(C(C)N2CCc3cc(-c4c(C)nc(C)c([C@H](OC(C)(C)C)C(=O)O)c4N4CCC(C)(C)CC4)ccc3C2)cc1C(F)(F)F | - | MT-2 | NL4-3 | - | ≤0.1 µM |
| COC(=O)c1cccc2c(C(=O)C(=O)N3CCN(C(=O)c4ccccc4)CC3C(C)(C)C)c[nH]c12 | - | HeLa + HELA CD4+/CCR5 | - | - | <10 µM |
| C[C@H](CCC(=O)NCCCCN(CCCNC(=O)CC[C@@H](C)[C@H]1CC[C@H]2[C@@H]3[C@H](OS(=O)(=O)O)C[C@@H]4C[C@H](OS(=O)(=O)O)CC[C@]4(C)[C@H]3C[C@H](OS(=O)(=O)O)[C@]12C)C(=O)CC[C@@H](C)[C@H]1CC[C@H]2[C@@H]3[C@H](OS(=O)(=O)O)C[C@@H]4C[C@H](OS(=O)(=O)O)CC[C@]4(C)[C@H]3C[C@H](OS(=O)(=O)O)[C@]12C)[C@H]1CC[C@H]2[C@@H]3[C@H](OS(=O)(=O)O)C[C@@H]4C[C@H](OS(=O)(=O)O)CC[C@]4(C)[C@H]3C[C@H](OS(=O)(=O)O)[C@]12C | - | U87-CD4-CCR5 + U87 | Pseudotyped recombinant replication-defective | - | <100 µg/mL |
| CC(C)=CCC[C@@H](C)[C@@H]1CC[C@@]2(C)O[C@@H]1[C@@H]1C(C)=C[C@@H](O)[C@H]12 | - | 293T | - | pseudotyped | >30 µM |
| CN1CC(C(=O)N(CCCN2CCC(Cc3ccc(F)cc3)CC2)c2ccc(Cl)c(Cl)c2)CC1=O | - | MOLT-4-CCR5+ + MOLT-4 | JR-FL R5 | - | 0.19 µM |
| O=C(NCc1ccc(F)cc1)c1nc2n(c(=O)c1O)CC1CCC2(NC(=O)C2CCCO2)CC1 | (delta)nef | MT-2 | NL4-3 | pseudotyped | <0.01 µM |
| CC(=O)O[C@@H]1C[C@@H](C)[C@@H]2C[C@@H]2C2=C([C@@H]1[C@H](C)CCC=C(C)C)[C@H](O)OC2=O | - | 293T | - | pseudotyped | >30 µM |
| O=C(NCCCCCN1CCCC2=C[C@@H]3C[C@@H](CN4CCCC[C@H]34)[C@@H]21)c1c(F)cc(Br)cc1F | - | MT-4 | NL4-3 | - | >20 µM |
| O=C(NCc1ccc(F)cc1F)c1cn2cc[nH]c(=O)c2c(O)c1=O | S230N | HEK 293 | - | - | 0.0845 µM |
| Cc1cc(C)c(Oc2nc(Nc3ccc(C#N)cc3)nc3sccc23)c(C)c1 | - | HeLa | Y181C | - | 0.01–0.1 µM |
| CC(=O)[C@H]1/C=C(\C)CC/C=C(\C)C(=O)C[C@@H]2[C@]1(C)CC[C@@]2(O)C(C)C | - | 293T | - | pseudotyped | >30 µM |
| COc1cc(O)c2c(c1O)C(=O)c1cc(C)ncc1C2=O | - | SupT1 | - | pseudotyped | 9.4 µg/mL |
| O=c1oc2c(O)c(O)cc3c(=O)oc4c(O)c(O)cc1c4c23 | - | TZM-bl | JR-CSF | 24 h | 29.52 µM |
| Cc1ccc(C(C)N2CCc3cc(-c4c(C)nc(C)c([C@H](OC(C)(C)C)C(=O)O)c4N4CCC(C)(C)CC4)ccc3C2)cc1C | - | MT-2 | NL4-3 | - | ≤0.1 µM |
| Cc1cc(C)c(Oc2nc(Nc3ccc(C#N)cc3)nc3sc4c(c23)CCCC4)c(C)c1 | - | HeLa | - | - | 0.01–0.1 µM |
| CC(C)(C)[C@@H](CO)n1cc(C(=O)NCCN2CCOCC2)c(=O)c2cc(Cc3cccc(Cl)c3F)c(NCCN3CCOCC3)nc21 | - | HeLa | NL4-3 | pseudotyped | 0.01–0.1 µM |
| Cc1cc(C)c(Oc2nc(Nc3ccc(C#N)cc3)nc3ccsc23)c(C)c1 | - | HeLa | Y-188L | - | <0.01 µM |
| O=C(NCc1c(F)cc(F)cc1F)c1cn2c(c(O)c1=O)C(=O)N1[C@H]3CC[C@H](C3)O[C@@H]1C2 | +G insertion (GGGGAGT) | HOS | - | - | <0.001 µM |
| COCCOC12CCC(CC1)Cn1c2nc(C(=O)NCc2ccc(F)cc2)c(O)c1=O | (delta)nef | MT-2 | NL4-3 | pseudotyped | 0.01 µM |
| O=C(NCCCCN1CCCC2=C[C@@H]3C[C@@H](CN4CCCC[C@H]34)[C@@H]21)c1c(F)cc(Br)cc1F | - | MT-4 | NL4-3 | - | >20 µM |
| CC(C)(C)OC(=O)Nc1ccc(C(=O)N2CCN(C(=O)C(=O)c3c[nH]c4cccc(F)c34)CC2)cc1 | - | HeLa + HELA CD4+/CCR5 | - | - | <10 µM |
| Cc1nn(C)c(C)c1CN(C)C(=O)C(=O)NC12CCC(CC1)Cn1c2nc(C(=O)NCc2ccc(F)cc2)c(O)c1=O | (delta)nef | MT-2 | NL4-3 | pseudotyped | <0.01 µM |
| COC(=O)c1cc(O)c(O)c(O)c1 | - | TZM-bl | - | pseudotyped | 11.9 µM |
| COC(Cn1ccn2cc(C(=O)NCc3ccc(F)cc3F)c(=O)c(O)c2c1=O)OC | G118R | HEK 293 | - | - | 0.1031 µM |
| COC1=CC(=O)c2c(O)c(C)c(CC(C)=O)c(O)c2C1=O | - | SupT1 | - | pseudotyped | 1.6 µg/mL |
| COCCCn1ccn2cc(C(=O)NCc3ccc(F)cc3F)c(=O)c(O)c2c1=O | G118R | HEK 293 | - | - | 0.0859 µM |
| Cn1nc(NS(C)(=O)=O)c2c(Cl)ccc(-n3c([C@H](Cc4cc(F)cc(F)c4)NC(=O)Cn4nc(C5CC5)c5c4C(F)(F)[C@H]4C[C@@H]54)nc4nc(OCCC(F)(F)F)ccc4c3=O)c21 | - | MT-2 | NL4-3 | - | 0.000079 µM |
| O=C(C(=O)N1CCN(C(=O)c2cccc3ccsc23)CC1)c1c[nH]c2cccc(Cl)c12 | - | HeLa + HELA CD4+/CCR5 | - | - | <10 µM |
| CS(=O)(=O)CCc1cnc2c(c1)c(N)c(C(=O)NCc1ccc(F)cc1F)c(=O)n2O | Y143H | 293T | - | pseudotyped | 0.0374 µM |
| O=C(NCc1ccc(F)cc1F)c1cn2ccn(CCCCO)c(=O)c2c(O)c1=O | R263K | HEK 293 | - | - | 0.0206 µM |
| CC(=O)Oc1cccc(C(=O)N2CCN(C(=O)C(=O)c3c[nH]c4cccc(F)c34)CC2)c1 | - | HeLa + HELA CD4+/CCR5 | - | - | <10 µM |
| O=C(NCCCCCCN1CCCC2=C[C@@H]3C[C@@H](CN4CCCC[C@H]34)[C@@H]21)c1c(F)cc(Br)cc1F | - | MT-4 | NL4-3 | - | >20 µM |
| Cc1nc(C)c([C@H](OC(C)(C)C)C(=O)O)c(N2CCC(C)(C)CC2)c1-c1ccc2c(c1)CCN(Cc1cccc(C(F)(F)F)c1F)C2 | - | MT-2 | NL4-3 | - | ≤0.1 µM |
| COc1cc2c(cc1OCc1cccc(Cl)c1F)c(=O)c(C(=O)O)cn2[C@H](CO)C(C)(C)C | - | HeLa | NL4-3 | pseudotyped | 0.1 µM |
| O=C(NCCCCCCN1CCC[C@@H]2C[C@@H]3C[C@@H](CN4CCCC[C@H]34)[C@@H]21)c1c(F)cc(Br)cc1F | - | MT-4 | NL4-3 | - | >20 µM |
| Cc1ccc(-c2c([C@@H](OC(C)(C)C)C(=O)O)c(C)nc3c2ccn3Cc2ccc(F)cc2F)cc1 | - | MT-4 | - | - | 36 µM |
| COC(=O)c1cccc2c(C(=O)C(=O)N3CCN(C(=O)c4ccccc4)C[C@H]3C)c[nH]c12 | - | HeLa + HELA CD4+/CCR5 | - | - | <10 µM |
| Cc1c(-c2c(C)c3c(c(C)c2[C@H](OC(C)(C)C)C(=O)O)CN(C(=O)CC(C)(C)C)C3)cc(F)c2c1CCCO2 | - | MT-4 | IIIB | - | 0.036 µM |
| O=C(Cn1nc(C(F)F)cc1C1CC1)N[C@@H](Cc1cc(F)cc(F)c1)c1nc2nc(-c3ncccn3)ccc2c(=O)n1-c1ccc(Cl)c2c(NS(=O)(=O)C3CC3)nn(CC(F)F)c12 | - | MT-2 | NL4-3 | - | 0.0004 µM |
| C[C@H]1CO[C@@H]2Cn3cc(C(=O)NCc4ccc(F)cc4F)c(=O)c(O)c3C(=O)N12 | AGC (GGGAGC) | HOS | - | - | <0.003 µM |
| Cc1ccc(-c2c(C)c3c(c(C)c2C(OC(C)(C)C)C(=O)O)CN(C(=O)c2nccn2C)C3)cc1 | - | MT-4 | IIIB | - | 0.94 µM |
| Cc1nc2c(ccn2Cc2cccc(F)c2F)c(-c2ccc3c(c2C)N(C)CCO3)c1[C@H](OC(C)(C)C)C(=O)O | - | MT-4 | - | - | 0.006 µM |
| CCCCCCCCCCCCCCCCCC1O[C@@H](CO)[C@H](O)[C@H](O)[C@@H]1O | - | TZM-bl | 89.6 | - | 9.72 µM |
| Cc1cc(F)cnc1CNC(=O)c1nc2n(c(=O)c1O)CC1CCC2(NC(=O)C(=O)N(C)C)CC1 | (delta)nef | MT-2 | NL4-3 | pseudotyped | 0.01–0.1 µM |
| C=C1C[C@@H](O)[C@@H]([C@@](C)(O)CCC=C(C)C)[C@@H](O)[C@@H]2C(C)=CC[C@@H]12 | - | 293T | - | pseudotyped | 26.1 µM |
| CN(C)C(=O)C(=O)NC12CCC(CC1)Cn1c2nc(C(=O)NCc2ccccc2C(F)(F)F)c(O)c1=O | (delta)nef | MT-2 | NL4-3 | pseudotyped | <0.01 µM |
| Nc1c(C(=O)NCc2ccc(F)cc2F)c(=O)n(O)c2ncc(CCCCCCO)cc12 | AGC (GGGAGC) | HOS | - | - | <0.003 µM |
| Cn1nc(NS(C)(=O)=O)c2c(Cl)ccc(-n3c([C@H](Cc4cc(F)cc(F)c4)NC(=O)Cn4nc(C5CC5)c5c4C(F)(F)[C@@H]4C[C@H]54)nc4nc(OCCC(F)(F)F)ccc4c3=O)c21 | - | MT-2 | NL4-3 | - | 0.000014 µM |
| COc1cc2c(cc1Cc1c(F)cc(F)cc1F)c(=O)c(C(=O)O)cn2[C@H](CO)C(C)(C)C | - | HeLa | NL4-3 | pseudotyped | 0.01–0.1 µM |

A second listing of 5 rows from above:

smiles | mutations | cell line | strain | setting | result
O=C(C(=O)N1CCN(C(=O)c2ccccc2)CC1)c1c[nH]c2c(OCC(F)(F)F)ccc(F)c12 | - | HeLa + HELA CD4+/CCR5 | - | - | <10 µM
CC(C)(C)[C@@H](CO)n1cc(C(=O)NCCN2CCOCC2)c(=O)c2cc(Cc3cccc(Cl)c3F)c(NCCN3CCOCC3)nc21 | - | HeLa | NL4-3 | pseudotyped | 0.01–0.1 µM
C[C@H](CCC(=O)NCCCCN(CCCNC(=O)CC[C@@H](C)[C@H]1CC[C@H]2[C@@H]3[C@H](OS(=O)(=O)O)C[C@@H]4C[C@H](OS(=O)(=O)O)CC[C@]4(C)[C@H]3C[C@H](OS(=O)(=O)O)[C@]12C)C(=O)CC[C@@H](C)[C@H]1CC[C@H]2[C@@H]3[C@H](OS(=O)(=O)O)C[C@@H]4C[C@H](OS(=O)(=O)O)CC[C@]4(C)[C@H]3C[C@H](OS(=O)(=O)O)[C@]12C)[C@H]1CC[C@H]2[C@@H]3[C@H](OS(=O)(=O)O)C[C@@H]4C[C@H](OS(=O)(=O)O)CC[C@]4(C)[C@H]3C[C@H](OS(=O)(=O)O)[C@]12C | - | U87-CD4-CCR5 + U87 | Pseudotyped recombinant replication-defective | - | <100 µg/mL
O=C(NCc1ccc(F)cc1F)c1cn2c(c(O)c1=O)C(=O)NCC2 | S230N | HEK 293 | - | - | 0.1033 µM
Cc1c(-c2c(C)c3c(c(C)c2[C@H](OC(C)(C)C)C(=O)O)CN(C(=O)CC(C)(C)C)C3)cc(F)c2c1CCCO2 | - | MT-4 | IIIB | - | 0.036 µM

ECn: concentration that inhibits the pathogen or its effect by n%. Blank or dashed fields: not listed here. Rows are shuffled and stem from different studies.